Measurements as given in PubChem BioAssay AID1376 (SRMLSC, 2008).
Only a part is listed here, and it is no random draw. Results with a measured potency or affinity are listed apart. Some structures show a salt or complex split into parts, the way the source records it. Calls of active or inactive are those of the source. Rule as the data show it: active = inhibition above about 13%; inconclusive = no clear call, values can overlap the other calls; inactive = below that.

Protein sequences, listed by entry. Tags and fused reporters are not part of them.
UniProt P9WMN3, whole entry: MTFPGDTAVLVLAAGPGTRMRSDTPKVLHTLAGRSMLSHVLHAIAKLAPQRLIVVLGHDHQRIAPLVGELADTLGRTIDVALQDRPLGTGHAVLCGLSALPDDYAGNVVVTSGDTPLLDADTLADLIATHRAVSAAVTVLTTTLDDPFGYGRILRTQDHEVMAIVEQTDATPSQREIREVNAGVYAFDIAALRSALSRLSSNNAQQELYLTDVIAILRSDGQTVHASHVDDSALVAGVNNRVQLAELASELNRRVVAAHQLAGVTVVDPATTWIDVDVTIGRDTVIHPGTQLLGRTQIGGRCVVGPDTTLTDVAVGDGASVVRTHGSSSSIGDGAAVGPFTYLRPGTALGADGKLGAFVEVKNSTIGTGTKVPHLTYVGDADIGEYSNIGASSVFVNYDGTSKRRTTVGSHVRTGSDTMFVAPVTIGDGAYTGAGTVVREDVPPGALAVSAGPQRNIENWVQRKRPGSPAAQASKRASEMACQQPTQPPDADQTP

Biological target: Bifunctional protein GlmU (Mycobacterium tuberculosis (strain ATCC 25618 / H37Rv)) (UniProt P9WMN3)
Test: inhibition of mycobacterial GlmU enzyme – biochemical, glucosamine-1-phosphate acetyltransferase (AID 1376);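 also: 0% = complete reaction with vehicle and 100% = reaction without substrate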
Conditions: M. tuberculosis GlmU acetyltransferase enzyme assay; stronger effect = higher value;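 tested at 30 µM in the primary screen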

Structure (SMILES)	inhibition
CC1=NCCc2c1[nH]c1ccccc21.O=[N+]([O-])c1cc([N+](=O)[O-])c(O)c([N+](=O)[O-])c1	inactive: -10.8%
O=C(O)c1cccc(Nc2c([N+](=O)[O-])cc([N+](=O)[O-])cc2[N+](=O)[O-])c1	inactive: -5%
Cc1cc(C)cc(OP(C)(=O)Nc2ccccn2)c1 (centres undefined)	inactive: 4.25%
CP(=O)(Nc1cccc(Br)c1)Oc1ccccc1 (centres undefined)	inactive: -2.21%
Cc1ccc(C)c(NP(C)(=O)Oc2ccccc2)c1 (centres undefined)	inactive: -0.69%
COc1ccccc1OP(C)(=O)Nc1cccc(Br)c1 (centres undefined)	inactive: -5.32%
Cc1cc(C)cc(OP(C)(=O)Nc2ccc(C)cc2C)c1 (centres undefined)	inactive: 4.16%
CCOC(=O)c1ccc(NP(C)(=O)Oc2cc(C)cc(C)c2)cc1 (centres undefined)	inactive: 2.72%
O=C(OCCN1CCN(CCOCc2ccccc2)CC1)C(O)(c1ccccc1)c1ccccc1	inactive: 1.02%
O=C(OC1CN2CCC1CC2)c1ccc([N+](=O)[O-])cc1 (centres undefined)	inactive: -3.65%
COc1ccc2c(c1O)-c1c(O)c(OC)cc3c1[C@H](C2)[N+](C)(C)CC3.O=[N+]([O-])c1cc([N+](=O)[O-])c([O-])c([N+](=O)[O-])c1[O-]	inactive: 5.78%
CC(C)c1ccc(OP(C)(=O)Nc2ccc(SC(F)(F)F)cc2)cc1 (centres undefined)	inactive: -4.54%
CP(=O)(Nc1ccccc1F)Oc1ccccc1 (centres undefined)	inactive: 0.77%
CCN(CC)CCCOC(=O)C(O)(c1ccccc1)C1CCCCC1 (centres undefined)	inactive: 5.53%
CCCCCOc1ccc(NP(C)(=O)Oc2ccc(Cl)cc2Cl)cc1 (centres undefined)	inactive: 3.49%
CP(=O)(Nc1ccccc1)Oc1ccc(F)cc1 (centres undefined)	inactive: -2.39%
COc1ccc(OP(C)(=O)Nc2ccc(SC(F)(F)F)cc2)cc1 (centres undefined)	inactive: -0.39%
CCOC(=O)c1ccc(NP(C)(=O)Oc2ccc(F)cc2)cc1 (centres undefined)	inactive: 1.54%
O=[N+]([O-])c1cc([N+](=O)[O-])c(NCC2CCS(=O)(=O)C2)c([N+](=O)[O-])c1 (centres undefined)	inactive: -7.01%
Cc1cc(-c2cccc3ccccc23)c(C)cn1.O=[N+]([O-])c1cc([N+](=O)[O-])c(O)c([N+](=O)[O-])c1	inactive: 7.42%
O=[N+]([O-])c1ccc(OP2(=O)COCCO2)cc1 (centres undefined)	inactive: 7.79%
COc1ccc(OP(C)(=O)Nc2cccc(Br)c2)cc1 (centres undefined)	inactive: -1.3%
COc1ccc(NP(C)(=O)Oc2ccccc2OC)cc1 (centres undefined)	inactive: 1.1%
CN(C)CCOC(=O)C(O)(c1ccccc1)C1CCCCC1 (centres undefined)	inactive: -3.19%
CP(=O)(Nc1ccc2c(c1)OCCO2)Oc1ccccc1 (centres undefined)	inactive: -1.67%
Cc1ccccc1NP(C)(=O)Nc1ccccc1C	inactive: 2.94%
CP(=O)(Nc1ccc(SC(F)(F)F)cc1)Oc1ccc(F)cc1 (centres undefined)	inactive: -0.46%

Structure (SMILES)	inhibition
CCOP(C)(=S)SCC(=O)NC(C)(CC)C(=O)O (centres undefined)	inactive: -0.38%
CP(=O)(Nc1ccc(Cl)cc1)Oc1ccc(F)cc1 (centres undefined)	inactive: -6.6%
COc1ccccc1OP(C)(=O)Nc1ccccc1Br (centres undefined)	inactive: 2.49%
CC(C)(C)c1ccc(OP(C)(=O)O)cc1	inactive: 1.69%
CN(C)C(=O)c1c([N+](=O)[O-])cc([N+](=O)[O-])cc1[N+](=O)[O-]	inactive: 6.71%
CCN(CC)CC(O)COC(=O)C(O)(c1ccccc1)C1CCCCC1 (centres undefined)	inactive: -1.68%
COc1ccc(OP(C)(=O)Nc2ccc(Br)cc2)cc1 (centres undefined)	inactive: 1.58%
CP(=O)(Oc1ccccc1)N1CCOC1=O (centres undefined)	inactive: 1.58%
CCc1ccc(OP(C)(=O)Nc2cccnc2)cc1 (centres undefined)	inactive: 4.58%
COc1ccccc1OP(C)(=O)Nc1c(C)n(C)n(-c2ccccc2)c1=O (centres undefined)	inactive: 2.08%
O=C(OCCCN1CCCC1)C(O)(c1ccccc1)C1CCCCC1 (centres undefined)	inactive: 1.32%
CP(=O)(OC12CC3CC(CC(C3)C1)C2)OC12CC3CC(CC(C3)C1)C2	inactive: -4.68%
CCOC(=O)c1ccc(NP(C)(=O)Oc2ccc(Cl)cc2)cc1 (centres undefined)	inactive: -1.26%
Cc1nc2ccc3ccccc3c2o1.O=[N+]([O-])c1cc([N+](=O)[O-])c(O)c([N+](=O)[O-])c1	inactive: 1.49%
CP(=O)(Nc1ccc(Cl)cc1Cl)Oc1ccccc1 (centres undefined)	inactive: 0.71%
CP(=O)(OCCOc1ccccc1)OCCOc1ccccc1	inactive: 6.2%
Cc1cc(C)cc(OP(C)(=O)Nc2cccc(C(F)(F)F)c2)c1 (centres undefined)	inactive: -1.28%
COc1ccc(OP(C)(=O)Nc2ccccc2Br)cc1 (centres undefined)	inactive: -4.51%
COc1ccccc1OP(C)(=O)Nc1ccc(C)c(C)c1 (centres undefined)	inactive: -1.23%
Cc1c(NP(C)(=O)Oc2ccc(C(C)C)cc2)c(=O)n(-c2ccccc2)n1C (centres undefined)	inactive: 5.45%
O=[N+]([O-])c1cc([N+](=O)[O-])c(Nc2ccccn2)c([N+](=O)[O-])c1	inactive: 7.74%
CCc1ccc(OP(C)(=O)O)cc1	inactive: -0.36%
CP(=O)(Nc1ccccn1)Oc1ccccc1 (centres undefined)	inactive: 3.89%
COc1ccccc1OP(C)(=O)Nc1ccc(C)cc1C (centres undefined)	inactive: 1.06%
COc1ccccc1OP(C)(=O)Nc1ccc(Br)cc1 (centres undefined)	inactive: 1.01%
CN(C)CCOC(=O)C(O)(c1ccccc1)C1CCCC1 (centres undefined)	inactive: 2.39%
COc1ccc(OP(C)(=O)Nc2ccccn2)cc1 (centres undefined)	inactive: -2.69%
